Anti-infective test results gathered from many reports (values: NIAID ChemDB through PubChem).

Common to all: growth or infection tests; organism: Mycobacterium avium

MIC50, MIC90 and the like: level of inhibition, or share of isolates inhibited.

smiles,strain,endpoint,conditions,value
N#CCSc1ccnc(C#N)c1,330/88,MIC,-,1000 µM
CCCCCCc1ccc(NC(=O)c2cc(Br)cc(Br)c2O)cc1,MY330/88,MIC,-,32 µM
O=c1oc2ccccc2c(=O)n1-c1ccc([N+](=O)[O-])cc1,CNCTC MY330/88,MIC,-,31 µM
CCCN(CCC)c1nc(C(N)=S)cnc1C(N)=O,80/72,MIC,-,>100 µg/mL
Cc1ccc(-n2c(=O)oc3ccc(F)cc3c2=O)cc1,CNCTC MY330/88,MIC,-,16 µM
CSc1ccc(NC(=S)Nc2ccc(SC)cc2)cc1,724,MIC,-,>20 µg/mL
NC(=S)c1ccnc(SCC(O)CO)c1,330/88,MIC,-,250 µM
CCCCCCCc1ccc(NC(=O)c2cc(Br)cc(Br)c2O)cc1,MY330/88,MIC,-,32 µM
O=c1oc2ccc(F)cc2c(=S)n1-c1cccc(Cl)c1,MY330/88,MIC,14 d,4 µM
CCCCCCCc1ccc(NC(=O)c2ccc(Cl)cc2O)cc1,MY330/88,MIC,-,4 µM
CCN(CC)c1nc(C(N)=S)cnc1C(N)=O,80/72,MIC,-,>100 µg/mL
S=c1oc2c(Cl)cc(Cl)cc2c(=S)n1-c1ccc(Br)cc1,330/88,MIC,-,62 µM
N#Cc1cc(SCC(=O)NN)ccn1,330/88,MIC,-,500 µM
O=c1oc2ccc(Br)cc2c(=S)n1-c1ccc(Cl)c(Cl)c1,MY330/88,MIC,14 d,32 µM
CC[C@H]1OC(=O)[C@H](C)[C@@H](O[C@H]2C[C@@](C)(OC)[C@@H](O)[C@H](C)O2)[C@H](C)[C@@H](O[C@@H]2O[C@H](C)C[C@H](N(C)C)[C@H]2O)[C@](C)(OC)C[C@@H](C)C(=O)[C@H](C)[C@@H](O)[C@]1(C)O,3010,MBC,-,32 µg/mL
Cc1ccc(-n2c(=S)[nH]c3ccccc3c2=S)cc1,330/88,MIC,-,32 µM
CC(C)(C)c1ccc(NC(=O)c2cc(Cl)ccc2O)cc1,MY330/88,MIC,-,16 µM
CCCSc1ccc(NC(=S)Nc2ccc(SCCC)cc2)cc1,724,MIC,-,>20 µg/mL
O=c1oc2ccc(Br)cc2c(=O)n1-c1ccc(Br)cc1,CNCTC MY330/88,MIC,-,16 µM
CC(C)COc1ccc(NC(=S)Nc2ccc(OCC(C)C)cc2)cc1,724,MIC,-,5 µg/mL
COc1ccc2oc(=O)n(-c3cccc(Cl)c3)c(=S)c2c1,MY330/88,MIC,14 d,62.5 µM
NC(=S)c1cc(N2CCCCC2)ccn1,330/88,MIC,-,250 µM
S=c1[nH]c2ccccc2c(=S)n1-c1ccc(Br)cc1,330/88,MIC,-,32 µM
NC(=O)c1ncc(C(N)=S)nc1N1CCCC1,80/72,MIC,-,>100 µg/mL
N#CCSc1cc(C#N)ccn1,330/88,MIC,-,125 µM
O=c1oc2ccc(Br)cc2c(=S)n1-c1ccc(C(F)(F)F)cc1,MY330/88,MIC,14 d,32 µM
NNC(=O)c1ccncc1,3350-4,MBC,-,80 µg/mL
CCCCCCCc1ccc(NC(=O)c2cc(Cl)ccc2O)cc1,MY330/88,MIC,-,8 µM
NC(=O)c1ncc(C(N)=S)nc1Nc1cccc(O)c1,80/72,MIC,-,50 µg/mL
CCOC(=O)CSc1ccnc(C#N)c1,330/88,MIC,-,1000 µM
CC1COc2c(N3CCN(C)CC3)c(F)cc3c(=O)c(C(=O)O)cn1c23,ATCC 15769,MIC50,-,50 µg/mL
N#CCCCSc1cc(C(=N)N)ccn1,330/88,MIC,-,>1000 µM
Cc1ccc2oc(=S)n(-c3ccc(Cl)c(Cl)c3)c(=S)c2c1,MY330/88,MIC,21 d,16 µM
COc1ccc(NC(=S)Nc2ccc(OC)cc2)cc1,724,MIC,-,>20 µg/mL
S=c1[nH]c2ccccc2c(=S)n1-c1ccccc1,330/88,MIC,-,64 µM
CCCCCCc1ccc(NC(=O)c2cc(Br)ccc2O)cc1,MY330/88,MIC,-,8 µM
CO[C@H]1/C=C/O[C@@]2(C)Oc3c(C)c(O)c4c(O)c(cc(O)c4c3C2=O)NC(=O)/C(C)=C\C=C\[C@H](C)[C@H](O)[C@@H](C)[C@@H](O)[C@@H](C)[C@H](OC(C)=O)[C@@H]1C,Losanna 617,MIC,-,2 µg/mL
CCCc1ccc(NC(=O)c2ccc(Cl)cc2O)cc1,MY330/88,MIC,-,8 µM
Cc1ccc2oc(=S)n(-c3ccc(F)cc3)c(=S)c2c1,MY330/88,MIC,14 d,4 µM
CCCCCCCCc1ccc(NC(=O)c2ccc(Cl)cc2O)cc1,MY330/88,MIC,-,16 µM
COc1ccc2oc(=O)n(-c3ccc(Br)cc3)c(=S)c2c1,MY330/88,MIC,21 d,62.5 µM
N#CCCSc1ccnc(C(N)=S)c1,330/88,MIC,-,250 µM
COc1ccc2oc(=O)n(-c3ccc(C(F)(F)F)cc3)c(=O)c2c1,CNCTC MY330/88,MIC,-,32 µM
Cc1ccc(-n2c(=S)oc3ccc(Br)cc3c2=S)cc1,MY330/88,MIC,21 d,32 µM

For reference, 3 entries again:

smiles	strain	endpoint	conditions	value
S=c1[nH]c2ccccc2c(=S)n1-c1ccc(Br)cc1	330/88	MIC	-	32 µM
N#CCCCSc1cc(C(=N)N)ccn1	330/88	MIC	-	>1000 µM
Cc1ccc(-n2c(=S)[nH]c3ccccc3c2=S)cc1	330/88	MIC	-	32 µM

Conditions beyond the fields shown may differ between rows. Blank or dashed fields: not listed here.